Fold change is the IC50 on the isolate divided by the IC50 on a reference virus; 1 = unchanged, higher = more resistant. Changes are given against the subtype B consensus. No active / inactive call. The values were gathered from many studies (numbered anew) with different assays, which the source does not name. Most viruses are clinical isolates; some are laboratory strains or clones with known resistance changes. Isolates with mixed residues are left out; stretches that were not sequenced show no change. Round top values that many isolates share are read here as limits; other very high values and 0.1 may be limits too. For part of these data: The protease changes I3V and N37S, insertions and deletions cannot be read from the source.
Experiments:
lopinavir = compound: Cc1cccc(C)c1OCC(=O)N[C@@H](Cc1ccccc1)[C@@H](O)C[C@H](Cc1ccccc1)NC(=O)[C@H](C(C)C)N1CCCNC1=O [lopinavir]; assay: fold change of IC50 against reference virus; higher = more resistant; Cell-culture drug susceptibility tests of virus bearing the protease of each isolate, gathered from many studies.
saquinavir = compound: CC(C)(C)NC(=O)[C@@H]1C[C@@H]2CCCC[C@@H]2CN1C[C@@H](O)[C@H](Cc1ccccc1)NC(=O)[C@H](CC(N)=O)NC(=O)c1ccc2ccccc2n1 [saquinavir]; assay: as above
ritonavir = compound: CC(C)c1nc(CN(C)C(=O)N[C@H](C(=O)N[C@@H](Cc2ccccc2)C[C@H](O)[C@H](Cc2ccccc2)NC(=O)OCc2cncs2)C(C)C)cs1 [ritonavir]; assay: as above
indinavir = compound: CC(C)(C)NC(=O)[C@@H]1CN(Cc2cccnc2)CCN1C[C@@H](O)C[C@@H](Cc1ccccc1)C(=O)N[C@H]1c2ccccc2C[C@H]1O [indinavir]; assay: as above
nelfinavir = compound: Cc1c(O)cccc1C(=O)N[C@@H](CSc1ccccc1)[C@H](O)CN1C[C@H]2CCCC[C@H]2C[C@H]1C(=O)NC(C)(C)C [nelfinavir]; assay: as above
zidovudine = compound: Cc1cn([C@H]2C[C@H](N=[N+]=[N-])[C@@H](CO)O2)c(=O)[nH]c1=O [zidovudine]; assay: fold change of IC50 against reference virus; higher = more resistant
Experimental: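 Cell-culture drug susceptibility tests of virus bearing the reverse transcriptase of each isolate, gathered from many studies.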

Test System	fold change of IC50 against reference virus (lopinavir)	fold change of IC50 against reference virus (saquinavir)	fold change of IC50 against reference virus (ritonavir)	fold change of IC50 against reference virus (indinavir)	fold change of IC50 against reference virus (nelfinavir)	fold change of IC50 against reference virus (zidovudine)
HIV-1 isolate 1304 (protease changes: E35D L63P, study 62)	1					
HIV-1 isolate 44 (protease changes: I13V K20I E35D M36I R41K H69K T74S L89M, study 114)	1.3	1.5	1.6	1		
HIV-1 isolate 772 (protease changes: L10F M36I R57G I84V, study 105)	4	2	2			
HIV-1 isolate 400 (protease changes: G48V L90M, study 58)	1.2	24.7		6.2	7.6	
HIV-1 isolate 963 (protease changes: K20R E35D M36I I54V L63P A71V V82T, study 62)	6					
HIV-1 isolate 100 (protease changes: L10I G48V I54V L63P A71V I72M V77I V82A L90M I93L, study 116)	20		74	26	34	
HIV-1 isolate 544 (protease changes: L10F K20R L33I M36I M46L I54V Q58E L63P A71V V82C L90M, study 6)	92.5			58	178	
HIV-1 isolate 270 (protease changes: V82F I84V, study 58)	2.3	1.8		2.4	3.6	
HIV-1 isolate 595 (protease changes: L10I G48M I54V L63P A71I V77I V82A L90M, study 58)	101	350		180	144	
HIV-1 isolate 1518 (protease changes: L10I L33F M46L G48V I54V Q58E L63P A71V G73S V82A I84V L90M, study 6)	87.4			20.4	30.5	
HIV-1 isolate 431 (protease changes: L10I K20R M36I M46L G48V I54T Q58E L63P A71V V82A, study 6)	86.4			150	157	
HIV-1 isolate 185 (protease changes: L10I M46I L63P A71V G73S V82T L90M, study 58)	18.1	25.4		31.1	30	
HIV-1 isolate 1510 (protease changes: L10I L63P A71T I84V L90M, study 58)	2.4	8		2.6	4.8	
HIV-1 isolate 768 (protease changes: L10R M46I L63P V82T I84V, study 58)	5.3	1.3		5.1	4.1	
HIV-1 isolate 384 (protease changes: V82F, study 62)	3		52			
HIV-1 isolate 1039 (protease changes: D30N M46I V77I, study 58)	0.8	0.4		1.2	30.1	
HIV-1 isolate 322 (protease changes: I15V, study 62)	1					
HIV-1 isolate 1252 (protease changes: K20R E35D M36I N37C I54V L63P V82A, study 62)	10					
HIV-1 isolate 1027 (protease changes: L10I K14R L33F E35D M36L N37D K43T G48V I54V I62V L63P A71I I72K V82A I84V L90M I93L, study 15)	122		400	102	113	
HIV-1 isolate 562 (protease changes: I13V I15V L33F I54L I64V T74A V82S, study 62)	10		16			
HIV-1 isolate 1529 (protease changes: L10F T12S I13V K20T V32I E35D M36I I47V I54L L63P I64V A71V G73S L90M, study 15)	67	15	44	19		
HIV-1 isolate 797 (protease changes: V82T, study 62)	3		30			

Test System	fold change of IC50 against reference virus (lopinavir)	fold change of IC50 against reference virus (saquinavir)	fold change of IC50 against reference virus (ritonavir)	fold change of IC50 against reference virus (indinavir)	fold change of IC50 against reference virus (nelfinavir)	fold change of IC50 against reference virus (zidovudine)
HIV-1 isolate 344 (protease changes: L10F V32I M46I I47V R57G I84V T91S, study 105)	46	2	17			
HIV-1 isolate 1417 (protease changes: R57G, study 105)	1	1	1			
HIV-1 isolate 1558 (protease changes: M36I I50V L63P, study 58)	3.6	1.1		0.6	1.4	
HIV-1 isolate 1641 (protease changes: L10I M46L G48V I54V Q58E L63P A71V V77I V82A L90M, study 6)	39.1			39.9	44.1	
HIV-1 isolate 796 (protease changes: M46L V82A L90M, study 58)	0.8	0.6		1.3	1.1	
HIV-1 isolate 1136 (protease changes: L10F G16E V32I M46I I47A R57G H69Y I84V T91S, study 105)	340	4	21			
HIV-1 isolate 1374 (protease changes: L10I K20R L33F E35D M36I R41K M46L I54V I62V L63P A71I V77I V82A I84T L90M I93L, study 88)	48		160			
HIV-1 isolate 593 (protease changes: T12S K43R M46I I54V Q61H L63P V82F, study 7)	5.8	0.1	30.8		19.2	
HIV-1 isolate 763 (reverse transcriptase changes: M41L K122E L210W F214L A272P K277R A376T A400T D460N S468T H483Y K512Q S519N, study 126)						5
HIV-1 isolate 704 (protease changes: L10I I15V G16E K20R E35D M36I R41K I54A R57K Q61D A71V I72R V82A L89I L90M Q92K, study 109)	97	62	197	143		
HIV-1 isolate 216 (protease changes: V82A, study 62)	4		12			
HIV-1 isolate 661 (reverse transcriptase changes: D67N K70R K122E F214L T215Y K219Q A272P K277R M357T A376T A400T N447S D460N S468T S519N, study 81)						47.7
HIV-1 isolate 637 (protease changes: L10F M36I R57G I84V T91S, study 105)	12	3	5			
HIV-1 isolate 1042 (protease changes: L10I M46I L63P A71V V77I I84V N88D L90M, study 58)	22.3	91.4		29.4	48.6	
HIV-1 isolate 108 (reverse transcriptase changes: M41L D67N K70R K122E F214L T215F K219Q A272P K277R A376T A400T D460N S468T H483Y K512Q S519N, study 143)						51
HIV-1 isolate 170 (reverse transcriptase changes: K122E L210W F214L T215Y A272P K277R A376T A400T D460N S468T H483Y K512Q S519N, study 126)						27
HIV-1 isolate 4 (reverse transcriptase changes: M41L K122E F214L A272P K277R A376T A400T D460N S468T H483Y K512Q S519N, study 3)						4
HIV-1 isolate 225 (protease changes: L10I M46I L63P A71T I84V L90M, study 58)	3.8	5.7		3.5	6	
HIV-1 isolate 418 (reverse transcriptase changes: M41L K122E F214L T215Y A272P K277R A376T A400T D460N S468T H483Y K512Q S519N, study 126)						67
HIV-1 isolate 421 (reverse transcriptase changes: M41L K70R K122E F214L T215Y A272P K277R A376T A400T D460N S468T H483Y K512Q S519N, study 143)						34
HIV-1 isolate 1505 (reverse transcriptase changes: M41L I135T E204K T215Y I293V E297K D324P I329L A360V K431N V435A D460N S468P L491S, study 103)						9.2

Reference: the supplement of paper PMC3578754
